Test results taken from PMC6267092.

How the values were obtained:
[1] = system: CC(=O)Oc1ccc([N+](=O)[O-])cc1; assay: purified protein; details: 30 °C, Hill coefficient 2.09 ± 0.363, kcat apparent
[2] = system: CCCC(=O)Oc1ccc([N+](=O)[O-])cc1; assay: purified protein; details: 30 °C, Hill coefficient 3.12 ± 0.662, kcat apparent

With “LdtP (His6X-LdtP; CLIBASIA_01175) (Candidatus Liberibacter asiaticus str. gxpsy)” the K0.5 [1] was 0.44 ± 0.035 mM, the Vmax [1] was 0.67 µmol/min/mg and the kcat [1] was 0.54 s⁻¹. The kcat/Km [1] was 1240 M⁻¹ s⁻¹, the K0.5 [2] was 0.44 ± 0.032 mM and the Vmax [2] was 0.16 µmol/min/mg. The kcat [2] was 0.13 s⁻¹ and the kcat/Km [2] was 288 M⁻¹ s⁻¹.
